US20050020582A1 (priority 2001, published 2005)

Molecular target: protease resistant PrP^Sc (Mus musculus, UniProt P04925)
Settings: ScN2a cells; for PrP^Sc inhibition potency compared with quinacrine: FIG. 3; for anti-PrP^Sc effect (inhibition of PrP^Sc formation or accumulation): a week of treatment, in the range tested

SMILES	PrP^Sc inhibition potency compared with quinacrine	anti-PrP^Sc effect (inhibition of PrP^Sc formation or accumulation)	also measured
CCN(CC)CCCC(C)Nc1ccnc2cc(Cl)ccc12 (stereo not shown)	did not inhibit PrP^Sc at the same potency as quinacrine	–	–
CN(C)c1ccc2nc3ccc(=[N+](C)C)cc-3sc2c1	–	did not exhibit any anti-PrP^Sc effects	–
CCN(CC)CCCC(C)Nc1cc(OC)cc2cccnc12 (stereo not shown)	did not inhibit PrP^Sc at the same potency as quinacrine	–	–
CN(C)CCCN1c2ccccc2Sc2ccc(Cl)cc21 [chlorpromazine]	–	–	amount of PrP^Sc diminished (2 μM dose): 50%; PrP^Sc inhibition after seven days of treatment (seven days, FIG. 2a): substantial effect; PrP^Sc inhibition after two days of treatment (two days, FIG. 2a): weak effect
O=C(CCCN1CCC(O)(c2ccc(Cl)cc2)CC1)c1ccc(F)cc1	–	did not inhibit PrP^Sc formation or accumulation	–
